In paper PMC10927774:
The exact form of at least one protein or probe is not confirmed. For some assays here: Negatives hold for the conditions tested.

Columns and labels:
[1] = target: PmrA FL (Acinetobacter baumannii) (UniProt E2FGC2); test: EMSA; conditions: phosphorylation state not stated; EMSA: 10 mM Tris pH 7.5, 50 mM KCl, 1 mM DTT, 5% glycerol, 30 min, 1 pmol DNA in 10 ul, gel on ice; recombinant protein; protein details: N-terminal 6xHis; label: 5' biotin (forward primer); probe letters rebuilt from the primers and the genome
[2] = target: PmrA FL (Acinetobacter baumannii) (UniProt E2FGC2); test: ITC; conditions: ITC: 25 mM Tris pH 8.0, 150 mM NaCl, 10% glycerol, 25 C, with or without BeF3-/Mg2+ (5.3 mM BeSO4, 35 mM NaF, 7 mM MgCl2 in purification), recombinant protein, protein details: N-terminal 6xHis

“GTCTTACAAAGATAACCGTGTTGGTTTAATGGCTAAATATAGTTTCTAATAACGATTTTTTTAGCTAAAAATAGAAAAGACGAGGTTAAACTTAACCTCGTCTTTTTTTATTTGTTAAATTTAACAAATAATAATGAAATAAGGTCTCTAAATTAGATCATTTTTTATTTAAGTCATTTTTAAGTTTCAATTTCTACATTAAAGCATCATAAAAAGATTGTAGTCACTCACG (double strand) [pmrC promoter 232 bp]”: binds [1].
“GGCTAATCAAAGTGTACAGATTATATTTTTATTTACTATAAAATCTTATAGTTAAAGCTTATTTCTTAAAAAAATTGACTTAAATTTTATAAAAAATCAAATAAATTCAATAAATTAATTTACATCAATTGTCATAAAACCTTAAGAAAACTTTAAGTTGGAATTAAGGAAATTTCTCCATATTAAAAACGTATAGTTTTTCAGCAGCTAAGCAGAATAATTCTGTAACCCTGCCCTATGGTGGAATTTAG (double strand) [naxD promoter 251 bp]”: binds [1].
“TACCTAGCTCATTCCTAGCTT / AACGTAGGTCATTCGTAGGTA [PAmutatedDNA 21 bp]”: no binding ([2]; BeF3- state not stated for this row).
“TATTTAAGTCATTTTTAAGTT (double strand) [PAbindingDNA 21 bp direct repeat]” was tested, and the Kd ([2]; BeF3- and Mg2+ (phosphorylation mimic)) was 596 nM and the binding result ([2]; no BeF3-, no Mg2+) was “no binding”.
